Residue numbers refer to the chain shown, from its start. Human monoclonal antibodies against the spike receptor-binding domain (heavy:light variable regions). IC50 against pseudoviruses bearing the spike of naturally observed variants; lower = stronger; >10 µg/ml means not reached at the top dose. No active / inactive call. The stated detection limit is 0.0005 µg/ml; values near or below 0.001 µg/ml lie at the floor of the assay.
B1: XG2v-070 (protein)
chain 1: QVQLVESGGGVVQPGRSLRLSCAASGFTFSSYGMHWVRQAPGKGLEWVAVIWYDGSNKYYADSVKGRFTISRDNSKNTLYLHMNSLRAEDTAVYYCAREYFYDSSDFYYEYYFDYWGQGTLVTVSS
chain 2: QSALTQPRSVSGSPGQSVTISCTGTSSDVGGYNYVSWYQQHPGKAPKLMIYDVSKRPSGVPDRFSGSKSGNTASLTISGLQAEDEADYYCCSYAGSYTYVFGTGTKVTV
B2: XGv-003 (protein)
chain 1: QVQLVQSGAEVKRPGSSVKVSCKASGGTFRNYAINWVRQAPGQGLEWMGGIIRLFDRTDYAQKFQGRITIIADEDTNTAYMELRSLRSEDTGVYYCARGRALTRGILATMTVDVWGQGTTVTVSS
chain 2: DIVMTQSPDSLAVSLGERATINCKSSQSLLYSSNNKNFLGWSQQKPGQPPKLLIYWASTRESGVPDRFSGSGSGTDFTLTISSLQPEDVAIYYCHQYYSIPLTFGGGTKVEIK
B3: XGv-008 (protein)
chain 1: QLQLQESGPGLVKPSETLSLTCTVSGGSISSSRYYWGWIRQPPGKGLEWIGSLYYSGGTYFNPSLKSRVTISVDTSKNQFSLKLTSVTAADTAVYYCARDHYGDYALVYWGQGTLVTVSS
chain 2: QSVLTQPPSVSGAPGQRVTISCTGSSSNIGAGYDVHWYQQLPGTAPKLLIYGHNNRPSGVPDRFSGSQSGTSASLAITGLQAEDEADYYCQSYDTSLSALYVFGTGTKVTVL
B4: XGv-011 (protein)
chain 1: QVQLVESGGGVVQPGRSLRLSCAASGFIFSSYVLHWVRQAPGKGLEWVALISYDGRRQYYADSVKGRFTISRANANNTLFLQMNSLRTEDTAVYYCTTGDDPYRSAWYTQFDYWGQGALVTVSS
chain 2: QSVLTQPPSASGTPGQKVTISCSGSSSNIGSNSVNWYQQVPGTAPKLLIYDNTQRPSGVPDRFSGSKSATSASLAISGLQSHDEADYYCAAWDDSLHVVFGGGTKLTVL
B5: XGv-013 (protein)
chain 1: EVQLVESGGGLVQPGGSLRLSCAASGITVSSNYMTWVRQAPGKGLEWVSVIYAGGSTFYADSVKGRFTISRDNSKNTLYLQMNSLRVEDTAVYYCARDLVDYGMDVWGQGTTVTVSS
chain 2: DIQLTQSPSFLSASVGDRVTITCRASQGIASYLAWYQQKPGKAPKLLIYAASTLQSGVPTRFSGSGSGTEFTLTIRSLQPEDSATYYCQHPSGHPPTFGGGTKVEI
B6: XGv-023 (protein)
chain 1: EVQLVESGGDLVQPGGSLRLSCAASGFTFGSYDMHWVRQHTGKGLEWVSAIGTAGDTYYADSVKGRFIISRDNAKNSMYLQMTSLRAGDSALYYCARGGIVGYTYGNWYFDIWGRGSLVTVSP
chain 2: DIQMTQSPSSLTASVGDRVTITCRASQTISNYLNWYQHKPGKAPKLLIYAASSLESGVPSRFTGSGSGTDFTLTISSLQPEDFATYYCQQSYTMPPITFGQGTRLEIK
B7: XGv-052 (protein)
chain 1: QVQLVQSGAEVKKPGSSVKVSCKASGGTFSNYALSWVRQAPGQGLEWMGGIIPIFGTTNYAQNFQGRVTITADESTSTAYMELSSLRSEDTAVYYCARLDGYSFGHNRYYQDGMDDWGQGTTVTVSS
chain 2: DIQMTQSPSSLSASVGDRVTITCRASQAIRSDLGWYQQKPGKAPKCLIYAASTLQSGVPSRFSGSGSGTEFTLTISSLQPEDFATYYCLQQNIYPRTFGQGTKVEI
B8: XGv-053 (protein)
chain 1: B7 chain 1 with N31S, S35T, N63K, S84T
chain 2: DIQMTQSPSSLSASVGDRVTITCRASQDIRNDLGWYQQKPGKAPKCLIYAASTLQSGVPSRFSGSGSGTEFTLTISSLQPEDFATYYCLQQNIYPRTFGQGTKVEIK
B9: XGv-072 (protein)
chain 1: QVQLVESGGGVVQPGRSLRLSCAASGFTFSNYGMHWVRQAPGKGLEWVALIWYDGTNKYYADSVKGRFTISRDNSKNTVYLQMNSLRAEDTAVYYCARDYEITMAAPDYWGQGTLVTVSS
chain 2: DVVMTQSPLSLPVTLGQPASISCRSSQSLVSSDGNTYLNWFQQRPGQSPRRLIYKVSNRDSGVPDRFSGSGSGTDFTLKISRVEAEDVGIYYCMQGSHWPPTFGGGTKVEIK
B10: XGv-097 (protein)
chain 1: QVQLVQSGSELKKPGASVKVSCKASGYIFTSPAMNWVRQAPGQGLEWMGWINTNTGNPTYAQGFTGRFVFSLDTSVSTAYLQISSLKAEDTAVYYCARGMTTVVTYYYYGMDVWGQGTTVTVSS
chain 2: DIQMTQSPSSLSASVGDRVTITCRASQGISSWLAWYQQKPGKAPKLLIYAASSLQSGVPSRFSGSGSGTDFTLTISSLQPEDFATYYCQQANSFPPTFGQGTKVEIK
B11: XGv-155 (protein)
chain 1: B2 chain 1
chain 2: B2 chain 2
B12: XGv-159 (protein)
chain 1: QVQLVQSGAEMKKPGASVKVSCKASGYTFSNYGINWVRQAPGRGLEWMGWISGYNGNTKYAQKLQGRVTMTTDTSTTTAYMELRSLRSDDTAVYYCARTLGLWFGVDNWGQGTLVTVSS
chain 2: NFMLTQPHSVSESPGKTVTISCTGSSGSIASNYVQWYQQRPGSAPTTVIYEDKQRPSGVPDRFSGSIDSSSNSASLTISGLKTEDESDYYCQSYDGSSVIFGGGTKLTVL
B13: XGv-179 (protein)
chain 1: QVQLQESGPGLVKPSETLSLTCSVSGDSMSGYYWSWIRQPPGKGLEWIGYIYYSGSTKYTPSLKSRVTISVDTSKNQFSLKLNSVTAADTAVYYCAKEGTQGYFDSWGLGALVTVSS
chain 2: EIVLTQSPGTLSLSPGERATLSCRASQSLYSRYLAWYQQNPGQAPRLLIYGASSRATGIPDRFSGSGSGTDFTLTISRLEPEDFAVYYCHQYGGSLPTFGGGTKVEIK

How the values were obtained:
Experiment in all cases: pseudovirus neutralization IC50; higher = weaker neutralization
[1] = target: SARS-CoV-2 Omicron BA.1 spike pseudovirus
Protocol: (§1)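 Single-round VSV luciferase pseudovirus mixed with antibody dilutions for 1 h and put on Huh-7 cells for about a day; IC50 from the dose curve.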

[2] = target: SARS-CoV-2 Omicron BA.2 spike pseudovirus
Protocol: as §1

[3] = target: SARS-CoV-2 Omicron BA.2.75 spike pseudovirus
Protocol: as §1

[4] = target: SARS-CoV-2 Omicron BA.5 spike pseudovirus
Protocol: as §1

[5] = target: SARS-CoV-2 Omicron BQ.1.1 spike pseudovirus
Protocol: as §1

[6] = target: SARS-CoV-2 Omicron XBB spike pseudovirus
Protocol: as §1

[7] = target: SARS-CoV-2 early D614G spike pseudovirus
Protocol: as §1

| Binder | pseudovirus neutralization IC50 [1] [µg/mL] | pseudovirus neutralization IC50 [2] [µg/mL] | pseudovirus neutralization IC50 [3] [µg/mL] | pseudovirus neutralization IC50 [4] [µg/mL] | pseudovirus neutralization IC50 [5] [µg/mL] | pseudovirus neutralization IC50 [6] [µg/mL] | pseudovirus neutralization IC50 [7] [µg/mL] |
| --- | --- | --- | --- | --- | --- | --- | --- |
| B1 | > 10 | > 10 | > 10 | > 10 | > 10 | > 10 | 7.1 |
| B2 | > 10 | > 10 | > 10 | > 10 | > 10 | > 10 | 0.561 |
| B3 | > 10 | > 10 | > 10 | > 10 | > 10 | > 10 | 1.48 |
| B4 | 0.593 | 0.625 | 0.794 | 3.51 | > 10 | > 10 | 0.0254 |
| B5 | 0.00558 | 0.001 | 0.427 | 0.0446 | > 10 | > 10 | 0.00851 |
| B6 | > 10 | > 10 | > 10 | > 10 | > 10 | > 10 | > 10 |
| B7 | 0.0145 | 0.00956 | 0.00619 | 0.828 | 1.02 | > 10 | 0.0112 |
| B8 | 0.617 | 0.00568 | 0.0134 | 4.31 | > 10 | 6.73 | 0.0325 |
| B9 | 2.05 | 2.08 | 1.55 | 2.15 | > 10 | 5.11 | 2.15 |
| B10 | 1.27 | 1.69 | 1.79 | 1.19 | 1.44 | > 10 | 0.0551 |
| B11 | 1.43 | 1.2 | 1.78 | – | – | – | 0.0255 |
| B12 | > 10 | > 10 | > 10 | > 10 | > 10 | > 10 | 0.64 |
| B13 | 2.01 | 1.82 | 1.5 | 0.991 | > 10 | > 10 | 1.12 |
